A mixed list of measured activities; the numbers were collected in NIAID ChemDB.

Common to all: tests in culture; species: HIV-1; endpoint: inhibition

Rows are shuffled and stem from different studies.

compound	method	mutations	strain	tested at	setting	cell line	result
CCCc1[nH]c2ccccc2c(=O)c1C(=O)O	p24 / ELISA	-	NL4-3	100 µM	-	HeLa	<10%
CC(O)[C@H]1[C@@H](OC(=O)CC[C@H](C)CO[C@@H]2O[C@H](CO)[C@@H](O)[C@H](O)[C@H]2O)C[C@H]2[C@@H]3CC=C4C[C@@H](O[C@@H]5O[C@H](CO)[C@H](O[C@@H]6O[C@H](CO)[C@@H](O)[C@H](O[C@@H]7OC[C@@H](O)C(O)[C@H]7O)[C@H]6O[C@@H]6O[C@H](CO)[C@@H](O)[C@H](O)[C@H]6O)[C@H](O)[C@H]5O)CC[C@]4(C)[C@H]3CC[C@@]21C	luciferase / single cycle	-	-	30 µM	pseudotyped	SupT1	48.42%
Nc1ccc(C(=O)N2CCN(C(=O)C(=O)c3c[nH]c4cccc(F)c34)CC2)cc1	luciferase	-	-	10 µM	-	HeLa + HELA CD4+/CCR5	>98%
O=C(O)C1=C[C@@H](OC(=O)c2cc(O)c(O)c(O)c2)[C@@H](OC(=O)c2cc(O)c(O)c(O)c2)[C@H](OC(=O)c2cc(O)c(O)c(O)c2)C1	p24	-	IIIB	1 µg/mL	-	H9	30%
CCCCCCCCCCCCCC(=O)OC[C@H]1O[C@@H](n2cc(C)c(=O)[nH]c2=O)C[C@@H]1O	cytopathic effect / XTT	-	-	20 µM	-	CEM	6.2%
O=c1oc2cc(O)c(O)cc2c(O)c1-c1coc2c1c(=O)oc1cc(O)c(O)cc12	MTT	-	IIIB	10 µM	-	MT-4	55%
NCCSSCCN	p24	-	BaL	50 µM	-	Macrophage	55%
O=C1OCC2OC(O)C(O)C(O)C2OC(=O)c2cc(O)c(O)c(O)c2-c2c(O)c(O)c3oc(=O)c4c(c(O)c(O)c5oc(=O)c2c3c54)-c2c1cc(O)c(O)c2O	p24	-	IIIB	20 µg/mL	-	H9	75%
C[C@H]1CC[C@@]2(OC1)O[C@H]1C[C@H]3[C@@H]4CC=C5C[C@@H](O[C@@H]6O[C@H](CO)[C@H](O[C@@H]7O[C@H](CO)[C@@H](O)[C@H](O[C@@H]8OC[C@@H](O)C(O)[C@H]8O)[C@H]7O[C@@H]7O[C@H](CO)[C@@H](O)[C@H](O)[C@H]7O)[C@H](O)[C@H]6O)CC[C@]5(C)[C@H]4C[C@@H](O)[C@]3(C)[C@H]1[C@@H]2C	luciferase / single cycle	-	-	30 µM	pseudotyped	SupT1	95.14%
CC1(C)CC[C@]2(C(=O)NCCCCCC(=O)NCC(=O)O)CC[C@]3(C)C(=CC[C@@H]4[C@@]5(C)C[C@@H](O)[C@H](O)C(C)(C)[C@@H]5CC[C@]43C)[C@@H]2C1	p24 / ELISA	-	pNL4-3	10 µM	-	MT-2	-25.7%
Nc1cc(S(=O)(=O)O)c2ccccc2c1N	p24	-	-	1 µg/mL	-	H9	0%
O=C1O[C@@H]2[C@@H](OC(=O)c3cc(O)c(O)c(O)c3-c3c1cc(O)c(O)c3O)[C@@H](O)O[C@@H]1COC(=O)c3cc(O)c(O)c(O)c3-c3c(O)c(O)c4oc(=O)c5c(c(O)c(O)c6oc(=O)c3c4c65)-c3c(cc(O)c(O)c3O)C(=O)O[C@@H]21	p24	-	IIIB	0.2 µg/mL	-	H9	2%
O=C(O)c1c(-c2ccccc2)[nH]c2ccccc2c1=O	p24 / ELISA	-	NL4-3	100 µM	-	HeLa	<10%
O=C(CCCCCCCCCCC(=O)Nc1cc(S(=O)(=O)O)cc2cc(S(=O)(=O)O)cc(O)c12)Nc1cc(S(=O)(=O)O)cc2cc(S(=O)(=O)O)cc(O)c12	syncytia	-	-	2.5 µg/mL	-	MOLT-3	65%
CC(C)[C@H](NC(=O)CCCCCNC(=O)[C@]12CCC(C)(C)C[C@H]1C1=CC[C@@H]3[C@@]4(C)C[C@@H](O)[C@H](O)C(C)(C)[C@@H]4CC[C@@]3(C)[C@]1(C)CC2)C(=O)O	p24 / ELISA	-	pNL4-3	10 µM	-	MT-2	16.2%
CCc1[nH]c2ccccc2c(=O)c1C(=O)O	p24 / ELISA	-	NL4-3	100 µM	-	HeLa	15%
O=C(O)C[C@H]1C(=O)O[C@H]2[C@H](OC(=O)c3cc(O)c(O)c(O)c3)[C@@H](OC(=O)c3cc(O)c(O)c4c3[C@H]1[C@H](O)C(=O)O4)[C@H](OC(=O)c1cc(O)c(O)c(O)c1)O[C@@H]2COC(=O)c1cc(O)c(O)c(O)c1	p24	-	IIIB	20 µg/mL	-	H9	90%
CC(C)(C)OC(=O)Nc1ccc(C(=O)N2CCN(C(=O)C(=O)c3c[nH]c4cccc(F)c34)CC2)cc1	luciferase	-	-	10 µM	-	HeLa + HELA CD4+/CCR5	95%
O=C(O)C[C@@H]1C(=O)O[C@H]2[C@@H]3OC(=O)c4cc(O)c(O)c(O)c4-c4c(cc(O)c(O)c4O)C(=O)OC[C@H]2O[C@@H](OC(=O)c2cc(O)c(O)c(O)c2)[C@@H]3OC(=O)c2cc(O)c(O)c3c2[C@H]1[C@H](O)C(=O)O3	p24	-	IIIB	0.2 µg/mL	-	H9	3%
CC(C)[C@@H](NC(=O)CCCCCCCCCCNC(=O)[C@]12CCC(C)(C)C[C@H]1C1=CC[C@@H]3[C@@]4(C)C[C@@H](O)[C@H](O)C(C)(C)[C@@H]4CC[C@@]3(C)[C@]1(C)CC2)C(=O)O	p24 / ELISA	-	pNL4-3	25 µM	-	MT-2	78.8%
O=C(O)c1c[nH]c2c(-c3ccccc3)cccc2c1=O	p24 / ELISA	-	NL4-3	100 µM	-	HeLa	55%
CC1(C)CC[C@]2(C(=O)NCCCCCCCCCCC(=O)NCC(=O)O)CC[C@]3(C)C(=CC[C@@H]4[C@@]5(C)C[C@@H](O)[C@H](O)C(C)(C)[C@@H]5CC[C@]43C)[C@@H]2C1	p24 / ELISA	-	pNL4-3	10 µM	-	MT-2	14.4%
CC1=C(CC[C@H](C)CO[C@@H]2O[C@H](CO)[C@@H](O)[C@H](O)[C@H]2O)O[C@H]2C[C@H]3[C@@H]4CC=C5C[C@@H](O[C@@H]6O[C@H](CO)[C@H](O[C@@H]7O[C@H](CO)[C@@H](O)[C@H](O[C@@H]8OC[C@@H](O)C(O)[C@H]8O)[C@H]7O[C@@H]7O[C@H](CO)[C@@H](O)[C@H](O)[C@H]7O)[C@H](O)[C@H]6O)CC[C@]5(C)[C@H]4CC[C@]3(C)[C@@H]12	luciferase / single cycle	-	-	30 µM	pseudotyped	SupT1	41.94%
COC(=O)c1cccc2c(C(=O)C(=O)N3CCN(C(=O)c4ccccc4)CC3C(C)(C)C)c[nH]c12	luciferase	-	-	10 µM	-	HeLa + HELA CD4+/CCR5	63%
CC[C@H](CO)Nc1nc(NCc2ccc(-c3ccccn3)cc2)n2ncc(C(C)C)c2n1	trypan blue	-	-	0.05 µM	-	ACH2	75%
C[C@H]1CN(C(=O)c2ccccc2)CCN1C(=O)C(=O)c1c[nH]c2cccc(Br)c12	luciferase	-	-	10 µM	-	HeLa + HELA CD4+/CCR5	58%
C[C@H]1CC[C@@]2(OC1)O[C@H]1C[C@H]3[C@@H]4CC=C5C[C@@H](O[C@@H]6O[C@H](CO)[C@H](O[C@@H]7O[C@H](CO)[C@@H](O)[C@H](O)[C@H]7O[C@@H]7O[C@H](CO)[C@@H](O)[C@H](O)[C@H]7O)[C@H](O)[C@H]6O)CC[C@]5(C)[C@H]4CC[C@]3(C)[C@H]1[C@@H]2C	luciferase / single cycle	-	-	30 µM	pseudotyped	SupT1	98.47%
N#Cc1cc(Cl)cc(Oc2c(Cl)ccc3c2nnn3Cc2[nH]nc3ncccc23)c1	-	K103N	-	0.0038 µM	-	MT-4	>95%
C[C@H]1CC[C@@]2(OC1)O[C@H]1C[C@H]3[C@@H]4CC=C5C[C@@H](O[C@@H]6O[C@H](CO)[C@H](O[C@@H]7O[C@H](CO)[C@@H](O)[C@H](O)[C@H]7O[C@@H]7O[C@H](CO)[C@@H](O)[C@H](O)[C@H]7O)[C@H](O)[C@H]6O)CC[C@]5(C)[C@H]4CC(=O)[C@]3(C)[C@H]1[C@@H]2C	luciferase / single cycle	-	-	30 µM	pseudotyped	SupT1	62.19%
C[C@H]1[C@H](O)[C@@H](C)/C=C/C=C/C=C/C=C/C=C/C=C/C=C/[C@H](O[C@@H]2O[C@H](C)[C@@H](O)[C@H](N)[C@@H]2O)C[C@@H]2O[C@](O)(C[C@@H](O)C[C@@H](O)CC[C@H](O)[C@@H](O)C[C@@H](O)CC(=O)O[C@H]1C)C[C@H](O)[C@H]2C(=O)O	p24 / RT activity	-	MDR807 Primary isolate X4 (SI)	1.9 µM	-	PBMC	90%
CO[C@H]1C[C@@H]2CC[C@@H](C)[C@@](O)(O2)C(=O)C(=O)N2CCCC[C@H]2C(=O)O[C@H]([C@H](C)C[C@@H]2CC[C@@H](O)[C@H](OC)C2)CC(=O)[C@H](C)/C=C(\C)[C@@H](O)[C@@H](OC)C(=O)[C@H](C)C[C@H](C)/C=C/C=C/C=C/1C	p24	-	IIIB X4	0.001 µM	-	PBMC	36%
C[C@H](CCC(=O)NCC(=O)N[C@@H](Cc1cc(I)c(O)cc1I)C(=O)O)[C@H]1CC[C@H]2[C@@H]3[C@H](O)CC4C[C@H](O)CC[C@]4(C)[C@H]3C[C@H](O)[C@]12C	syncytia	-	IIIB	100 µg/mL	-	H9	40.9%
Cc1cccc(C)c1OCC(=O)N[C@@H](Cc1ccccc1)[C@H](O)[C@@H](O)[C@@H]1CCCN1C(=O)COc1c(C)cccc1C	MTT	-	IIIB	0.0001 µM	-	MT-2	22%
CSc1ccc(S)c(C(=O)N2CCN(C(=O)C(=O)c3c[nH]c4cccc(F)c34)CC2)c1	luciferase	-	-	10 µM	-	HeLa + HELA CD4+/CCR5	75%
C[C@@H](CC[C@@]1(O)O[C@H]2C[C@H]3[C@@H]4C(=O)C=C5C[C@@H](O[C@@H]6O[C@H](CO)[C@H](O[C@@H]7O[C@H](CO)[C@@H](O)[C@H](O[C@@H]8OC[C@@H](O)C(O)[C@H]8O)[C@H]7O[C@@H]7O[C@H](CO)[C@@H](O)[C@H](O)[C@H]7O)[C@H](O)[C@H]6O)CC[C@]5(C)[C@H]4CC[C@]3(C)[C@H]2[C@@H]1C)CO[C@@H]1O[C@H](CO)[C@@H](O)[C@H](O)[C@H]1O	luciferase / single cycle	-	-	30 µM	pseudotyped	SupT1	80.78%
Cc1c2ccnc(Cl)c2cc2c3cn(C)ccc-3nc12	p24 / ELISA	-	CLOZOT resistant strain	1 µM	-	Macrophages	97%
CCCCCCCCCCCCC(N=[N+]=[N-])C(=O)OC[C@H]1O[C@@H](n2cc(C)c(=O)[nH]c2=O)C[C@@H]1O	cytopathic effect / XTT	-	-	20 µM	-	CEM	10.9%
Cc1cccc2c(=O)c(C(=O)O)c[nH]c12	p24 / ELISA	-	NL4-3	100 µM	-	HeLa	17%
C=C(C)[C@@H]1CC[C@]2(C(=O)NCCCCCCCC(=O)N[C@@H](CC(C)C)[C@@H](O)CC(=O)O)CC[C@]3(C)[C@H](CC[C@@H]4[C@@]5(C)CC[C@H](O)C(C)(C)[C@@H]5CC[C@]43C)[C@@H]12	syncytia	GP41-K77R	LAI	10 µM	-	HeLa P4 + HeLa	>99%
C[C@H](NC(=O)[C@]12CCC(C)(C)C[C@H]1C1=CC[C@@H]3[C@@]4(C)C[C@@H](O)[C@H](O)C(C)(C)[C@@H]4CC[C@@]3(C)[C@]1(C)CC2)C(=O)O	p24 / ELISA	-	pNL4-3	10 µM	-	MT-2	-24.2%
O=C(C(=O)N1CCN(C(=O)c2ccccc2)CC1CO)c1c[nH]c2cccc(F)c12	luciferase	-	-	10 µM	-	HeLa + HELA CD4+/CCR5	89%
NCCSSCCN	p24	-	BaL	100 µM	-	Macrophage	72%
Cc1ccc(C)c(NS(=O)(=O)c2cc(C(=O)NCc3ccccn3)ccc2Cl)c1	p24	Nevirapine resistant	Clinical isolate	5 µM	-	C8166	90%
N#Cc1cc(Cl)cc(Oc2c(Cl)ccc3c2cnn3Cc2[nH]nc3ncccc23)c1	-	Y181C	-	0.058 µM	-	MT-4	>95%
CC(CCC(=O)N[C@@H](Cc1ccc(O)cc1)C(=O)O)C1CCC2C3CCC4C[C@H](O)CCC4(C)C3C[C@H](O)C12C	syncytia	-	IIIB	0.01 µg/mL	-	H9	84.8%
COc1ccc(Cl)c2[nH]cc(C(=O)C(=O)N3CCN(C(=O)c4ccccc4)CC3)c12	luciferase	-	-	10 µM	-	HeLa + HELA CD4+/CCR5	>98%
CC(=O)N1CCC(C(=O)N(CCCN2CCC(Cc3ccc(C(N)=O)cc3)CC2)c2ccc(C)c(Cl)c2)CC1	p24	-	HNK Clinical isolates	0.028 µM	-	PBMC	90%
Cc1cn([C@H]2C[C@H](O)[C@@H](COC(=O)CCCCCCCCCCBr)O2)c(=O)[nH]c1=O	cytopathic effect / XTT	-	-	52 µM	-	CEM	8.6%
N#Cc1cc(Cl)cc(Oc2c(Cl)ccc3c2ncn3Cc2[nH]nc3ncccc23)c1	-	-	-	0.023 µM	-	MT-4	>95%

For reference, 4 entries again:

N#Cc1cc(Cl)cc(Oc2c(Cl)ccc3c2cnn3Cc2[nH]nc3ncccc23)c1 ; mutations: Y181C ; tested at: 0.058 µM ; cell line: MT-4 ; result: >95%
C[C@H]1CN(C(=O)c2ccccc2)CCN1C(=O)C(=O)c1c[nH]c2cccc(Br)c12 ; method: luciferase ; tested at: 10 µM ; cell line: HeLa + HELA CD4+/CCR5 ; result: 58%
CC1(C)CC[C@]2(C(=O)NCCCCCCCCCCC(=O)NCC(=O)O)CC[C@]3(C)C(=CC[C@@H]4[C@@]5(C)C[C@@H](O)[C@H](O)C(C)(C)[C@@H]5CC[C@]43C)[C@@H]2C1 ; method: p24 / ELISA ; strain: pNL4-3 ; tested at: 10 µM ; cell line: MT-2 ; result: 14.4%
C[C@H]1CC[C@@]2(OC1)O[C@H]1C[C@H]3[C@@H]4CC=C5C[C@@H](O[C@@H]6O[C@H](CO)[C@H](O[C@@H]7O[C@H](CO)[C@@H](O)[C@H](O[C@@H]8OC[C@@H](O)C(O)[C@H]8O)[C@H]7O[C@@H]7O[C@H](CO)[C@@H](O)[C@H](O)[C@H]7O)[C@H](O)[C@H]6O)CC[C@]5(C)[C@H]4C[C@@H](O)[C@]3(C)[C@H]1[C@@H]2C ; method: luciferase / single cycle ; tested at: 30 µM ; setting: pseudotyped ; cell line: SupT1 ; result: 95.14%

Inhibition is in % at the dose shown (toxicity tests: loss of growth or viability). Blank or dashed fields: not listed here.